In PMC10668966:
Values joined by “and” are separate entries in the source; they are usually repeats but may differ in a detail not shown here. Identical values can stand only once.

Tested on: CC(=O)N[C@H]1[C@@H](OP(=O)(O)OP(=O)(O)OC[C@H]2O[C@@H](n3ccc(=O)[nH]c3=O)[C@H](O)[C@@H]2O)O[C@H](CO)[C@@H](O)[C@@H]1O
Test: purified protein
Conditions: pH 7.0; 37.0 °C

Question: Which Km does the source give for (Mycobacterium tuberculosis H37Rv) here?
Answer: 25.4 ± 2.1 µM and 26.3 ± 1.9 µM
